Assay results from article PMC5803236 (Scientific Reports, 2018).
Converted amounts (≈) assume the structure as drawn.

Tested on: hemagglutinin (HA) of H9N2 A/Chicken/Korea/MS96/1996
Assay type: cell-based, Influenza A virus

SMILES | MIC [mM]
CC(=O)N[C@H]1[C@H]([C@H](O)[C@H](O)CO)O[C@@](O[C@H]2[C@@H](O)[C@@H](CO)O[C@@H](O[C@H]3[C@H](O)[C@@H](O)C(O)O[C@@H]3CO)[C@@H]2O)(C(=O)O)C[C@@H]1O (some centres unmarked) [3′-sialyllactose] | 15.62 (≈ 9.9 mg/mL)
CC(=O)N[C@H]1[C@H]([C@H](O)[C@H](O)CO)O[C@@](OC[C@H]2O[C@@H](O[C@H]3[C@H](O)[C@@H](O)C(O)O[C@@H]3CO)[C@H](O)[C@@H](O)[C@H]2O)(C(=O)O)C[C@@H]1O (some centres unmarked) [6′-sialyllactose] | > 200
